Source: paper PMC8951179
Where a chain is given by its changes, count along the chain named. In names and notes the source's numbering stands.

B1: GST-Ku70_1–250, P12956 I72A (protein)
chain: MSGWESYYKTEGDEEAEEEQEENLEASGDYKYSGRDSLIFLVDASKAMFESQSEDELTPFDMSIQCIQSVYASKIISSDRDLLAVVFYGTEKDKNSVNFKNIYVLQELDNPGAKRILELDQFKGQQGQKRFQDMMGHGSDYSLSEVLWVCANLFSDVQFKMSHKRIMLFTNEDNPHGNDSAKASRARTKAGDLRDTGIFLDLMHLKKPGGFDISLFYRDIISIAEDEDLRVHFEESSKLEDLLRKVRAKE
B2: GST-Ku70_1–250, P12956 I76A (protein)
chain: B1 chain with A72I, I76A
B3: GST-Ku70_1–250, P12956 S73A (protein)
chain: B1 chain with A72I, S73A

Target: HIV-1 integrase carrying N-terminal His6-tag
Assay: GST pull-down, quantified Western blot
Settings: chain shown with the change; HIV-1 integrase 100 nM; parent: est. 0.38; read off a plot

How did the response (relative IN bound to Ku70) turn out when B1 was run?
Its response (relative IN bound to Ku70) is 0.02.

For B2, which response (relative IN bound to Ku70) is on record?
The response (relative IN bound to Ku70) was 0.07.

For B3, which response (relative IN bound to Ku70) is on record?
Its response (relative IN bound to Ku70) is 0.05.

Same assay, conditions: chain shown with the change; HIV-1 integrase 200 nM; parent: est. 1.0; read off a plot

How did the response (relative IN bound to Ku70) turn out when B1 was run?
The response (relative IN bound to Ku70) was 0.14.

For B2, which response (relative IN bound to Ku70) is on record?
The response (relative IN bound to Ku70) was 0.09.

For B3, which response (relative IN bound to Ku70) is on record?
The response (relative IN bound to Ku70) was 0.03.
